Test system: hepatitis C virus
Test: Dose-response assay against hepatitis C virus (EC50)
Format: cell-based
Conditions: selective index, CC50 over EC50
Protocol: Huh7.5 cells are grown in Dulbecco's modified essential media (DMEM), 10% fetal bovine serum (FBS), 1% penicillin-streptomycin (pen-strep), 1% Non-essential amino acids (NEAA) in a 5% CO2 incubator at 37° C. Huh7.5 cells were seeded at 1×10^4 cells per well into 96-well plates according to Southern Research Institute standard format. The test article was serially diluted with DMEM plus 5% FBS. The diluted compound in the amount of 50 μl was mixed with equal volume of cell culture-derived HCV (HCVcc), then applied to appropriate wells in the plate. Human interferon alpha-2b (rIFNα-2b) was included as a positive control compound. After 72 hr incubation at 37° C., the cells were lysed for measurement of luciferase activity using Renilla Luciferase Assay System (Promega) according to manufacturer's instruction. The number of cells in each well were determined by CytoTox-1 reagent (Promega). […] HCV replicon levels are assessed as replicon derived Luc activity. The toxic concentration of drug that reduced cell numbers was assessed by the CytoTox-1 cell proliferation assay (Promega), a fluorometric assay of cell numbers (and cytotoxicity). […]

Structure (SMILES) | SI
C=C(C)[C@@H]1CCC(C)=C[C@H]1c1c(O)cc(CCCCC)cc1O [CBD, Cannabidiol] | 4.954
CC(C)OC(=O)[C@H](C)N[P@](=O)(OC[C@H]1O[C@@H](n2ccc(=O)[nH]c2=O)[C@](C)(F)[C@@H]1O)Oc1ccccc1 [Sofosbuvir, reference compound] | >181

Reference: patent US10912740B2, “Treating hepatitis C with cannabidiol” (Vilotos Pharmaceuticals, Inc., priority 2017, dated 2021)
